Reference: patent US7183094B2, “Bacterial mycothiol S-conjugate amidase family” (The Regents of the University of California, priority 1999, dated 2007)

Test system: M. smegmatis mc^2155 cells
Test: M. smegmatis culture treated with mBBr: fate of mycothiol-related compounds and growth
Format: cell-based, Mycobacterium smegmatis
Experimental: Since mBBr is known to penetrate cells rapidly and to convert intracellular thiols to their bimane derivatives (Newton, et al. (1995) supra.), the fate of mycothiol in M. smegmatis cells treated with mBBr was examined to ascertain whether the reaction shown in FIG. 1C occurs in vivo. A logarithmic phase culture of M. smegmatis was cooled on ice to ˜3° C. to reduce enzymatic reactions prior to reaction with 0.5 mM mBBr. Excess reagent was reacted with 2-mercaptoethanol and the cells were pelleted, washed, and resuspended in a small amount of ice cold medium. The cells were diluted with prewarmed medium and replaced in the shaking incubator at 37° C. (time, t=0). Samples were removed and analyzed for intracellular and extracellular mycothiol related compounds over a 4 h interval (FIG. 3).
A logarithmic phase culture of M. smegmatis was cooled on ice to ˜3° C. to reduce enzymatic reactions prior to reaction with 0.5 mM mBBr. Excess reagent was reacted with 2-mercaptoethanol and the cells were pelleted, washed, and resuspended in a small amount of ice cold medium. The cells were diluted with prewarmed medium and replaced in the shaking incubator at 37° C. (time, t=0). Samples were removed and analyzed for intracellular and extracellular mycothiol related compounds over a 4 h interval (FIG. 3).
At t=0, […] per 100 mL (3.5 μmol per g RDW) of AcCySmB was present in the cells and […] per 100 mL was found in the medium. Within 5 min the cellular AcCySmB level had fallen to […] per 100 mL and the medium level increased to 220 nmol per 100 mL. Subsequent analyses found essentially all of the AcCySmB in the medium at a level of 225–230 nmol per 100 mL, accounting for 80–90% of the original cellular mycothiol content. No MSmB appears to be exported from cells as […] (<0.5%) was detected in the medium or the cell washes. A logarithmic phase culture (1 L) of M. smegmatis mc^2155 (OD600=1.2) in 7H9 Middlebrook medium was cooled on ice to 3° C. The iced culture was incubated with mBBr (0.5 mM from a 180 mM stock solution in acetonitrile) for 20 min; excess 2-mercaptoethanol (1.0 mM) was added, and the incubation continued on ice for an additional 10 min. The cells were pelleted by centrifugation and washed twice with 200 mL of sterile, ice-cold 7H9 Middlebrook medium to remove excess bimane derivative of 2-mercaptoethanol. The cells were resuspended in 50 mL of sterile ice cold medium and the experiment was initiated (t=0) by dilution into 950 mL of prewarmed (37° C.) 7H9 Middlebrook medium. The cell suspension was shaken in an incubator (225 rpm, 37° C.) and a “t=0” sample (100 mL) was removed from the culture within one min. This sample was mixed with an equal weight of ice and stored on ice until the second sample was taken similarly at 5 min, after which both were pelleted by centrifugation at 5000 g and 4° C. Additional samples were obtained in this manner at times up to 4 hours. An aliquot (0.5 mL) of supernatant was mixed with 0.5 mL of acetonitrile and incubated at 60° C. for 10 min. After centrifugation the supernatant was assayed by HPLC for bimane-labeled thiols in the medium. The pellet (always iced) was separated into 3 roughly equal parts in 1.5 mL microcentrifuge tubes and extracted for 10 min in 3 ways as follows.
The first sample was extracted using 1 mL of 60° C. acetonitrile-water for determination of cellular thiol-bimane derivatives. The second sample was extracted using 1 mL of 60° C. acetonitrile-water containing 2 mM mBBr and 20 mM tris(hydroxymethyl)aminomethane (Tris) pH 8.0 for determination of the sum of each cellular thiol and thiol-bimane derivative. The third sample was extracted using 1 mL of 60 C acetonitrile-water containing 5 mM N-ethylmaleimide (NEM) and 10 mM HEPES chloride pH 7.5. All tubes were centrifuged at 14000 g in a microcentrifuge and the supernatants removed for analysis. […]

SMILES	increase of cellular GlcN-Ins above the normal level (t=0)	AcCySmB in medium as share of the original cellular mycothiol content (subsequent analyses, up to 4 h)	AcCySmB level in the medium (subsequent analyses, up to 4 h)	AcCySmB found in the medium (t=0)	cellular AcCySmB level (within 5 min at 37° C.)	medium AcCySmB level (within 5 min at 37° C.)
N[C@H]1[C@@H](OC2[C@H](O)[C@H](O)C(O)[C@H](O)[C@H]2O)O[C@H](CO)[C@@H](O)[C@@H]1O (stereo partly drawn) [GlcN-Ins, 1-D-myo-inosityl-2-amino-2-deoxy-α-D-glucopyranoside]	~25 fold					
CC(=O)N[C@@H](CSCc1c(C)c(=O)n2c(=O)c(C)c(C)n12)C(=O)O [AcCySmB]		80–90%	225–230 nmol per 100 mL	160 nmol per 100 mL and 160 mmol per 100 mL	8 mmol per 100 mL	220 mmol per 100 mL and 220 nmol per 100 mL

Several values for one entry are separate records, joined by “and”; a condition that tells them apart may be missing. Identical values can stand only once.
